In US20030195350A1, “Individualization of therapy with antiviral agents” (priority 2001, published 2003):

System: 1X-Ab
Test: Effect of the ratio 1U:1X on determination of 1X concentration by ELISA
Format: binding, rabbit
Conditions: for [1X] × 10^6 (M): fixed 1X 3 × 10^−6 M

## Cn1c(=O)[nH]c2[nH]c(=O)[nH]c2c1=O [1-Methyluric acid]
1U:1X ratio 0.50
  [1X] × 10^6 (M): 2.75 × 10^6 (M)
1U:1X ratio 1.00
  [1X] × 10^6 (M): 3.25 × 10^6 (M)
1U:1X ratio 1.50
  [1X] × 10^6 (M): 3.25 × 10^6 (M)
1U:1X ratio 2.00
  [1X] × 10^6 (M): 3.60 × 10^6 (M)
1U:1X ratio 2.5
  apparent increase of 1X concentration: 22%
1U:1X ratio 2.50
  [1X] × 10^6 (M): 3.65 × 10^6 (M)
1U:1X ratio 3.0
  apparent increase of 1X concentration: 32%
1U:1X ratio 3.00
  [1X] × 10^6 (M): 3.95 × 10^6 (M)
1U:1X ratio 4.00
  [1X] × 10^6 (M): 4.20 × 10^6 (M)
1U:1X ratio 5.00
  [1X] × 10^6 (M): 4.30 × 10^6 (M)
1U:1X ratio 6.00
  [1X] × 10^6 (M): 4.50 × 10^6 (M)
1U:1X ratio 8.00
  [1X] × 10^6 (M): 4.30 × 10^6 (M)
